Data on 1 substance can be found in US20120245079A1, “Treatment of Diseases Caused by Bacterial Exotoxins” (published 2012).

By Kd is commonly meant a measure of binding affinity in units of concentration.

In this assay the target is toxic shock syndrome toxin-1 (TSST-1), Staphylococcus aureus peptide. Nature of the assay: method not told here; cited from Buonpane et al. 2005; soluble, other.

For the substance D10, the Kd is 0.18 nM.
